PubChem BioAssay AID624099 | ICCB-Longwood – 2012
The deposit covers about 21,000 reagents; shown is a random part of them. 497 of all reagents (2.4%) were called active. 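Higher z means weaker E2 silencing; only reporter increases were scored, and knock-downs that hurt cell survival may mask genuine repressor factors.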 Unmarked entries are inactive. No sequences are given here.

- Aim: 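Knock-downs relieving repression by E2 of an HPV18 LCR luciferase reporter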 (primary screen)
- System: human C33A cervical carcinoma cells (HPV-negative) stably expressing BPV1 E2 and an HPV18 LCR luciferase reporter
- Reagents: siRNA pool against human genes, 40 nM
- Timing: 72 h
- Measurement: 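Per-well luciferase luminescence, z-scored on each plate against the plate mean and SD with control wells left out, then averaged across three replicate plates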
- Reading the numbers: mean z-score and z-score: higher = stronger reporter signal, weaker E2 silencing
- Hit rule: 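Mean z ≥ 2 together with z ≥ 2 in two or more of the three replicates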

With knock-down of UBQLNL (ubiquilin like) the results were mean z-score -1.25; z-score, replicate A = -1.11; z-score, replicate B = -1.33; z-score, replicate C = -1.29.
After knock-down of RPA1 (replication protein A1), the record shows mean z-score 0.94; z-score, replicate A = 0.92; z-score, replicate B = 1.05; z-score, replicate C = 0.86.
Depletion of AIF1 (allograft inflammatory factor 1) resulted in: mean z-score 0.92; z-score, replicate A = 0.59; z-score, replicate B = 1.27; z-score, replicate C = 0.91.
Knock-down of MAZ (MYC associated zinc finger protein) came out at: mean z-score -0.33; z-score, replicate A = -0.12; z-score, replicate B = -0.24; z-score, replicate C = -0.65.
Depletion of FOXB1 (forkhead box B1) resulted in: mean z-score 2.89 (active); z-score, replicate A = 3.13; z-score, replicate B = 2.66; z-score, replicate C = 2.89.
TTC41P (tetratricopeptide repeat domain 41, pseudogene) scored mean z-score -0.49; z-score, replicate A = -0.64; z-score, replicate B = -0.22; z-score, replicate C = -0.6.
Against ENPP7 (ectonucleotide pyrophosphatase/phosphodiesterase 7) the deposit lists mean z-score 2.84 (active); z-score, replicate A = 2.84; z-score, replicate B = 2.51; z-score, replicate C = 3.18.
Knock-down of ITPKA (inositol-trisphosphate 3-kinase A) gave: mean z-score 1.14; z-score, replicate A = 1.37; z-score, replicate B = 0.87; z-score, replicate C = 1.17.

Reformatted: entries from further up
| gene knocked down | mean z-score | z-score, replicate A | z-score, replicate B | z-score, replicate C |
| --- | --- | --- | --- | --- |
| ENPP7 (ectonucleotide pyrophosphatase/phosphodiesterase 7) | 2.84 (active) | 2.84 | 2.51 | 3.18 |
| ITPKA (inositol-trisphosphate 3-kinase A) | 1.14 | 1.37 | 0.87 | 1.17 |

The listing continues.
Depletion of STIM2 (stromal interaction molecule 2) came out at: mean z-score 1.02; z-score, replicate A = 1.3; z-score, replicate B = 0.6; z-score, replicate C = 1.16.
Silencing of SRP14 (signal recognition particle 14) gave: mean z-score 0.4; z-score, replicate A = 0.75; z-score, replicate B = 0.14; z-score, replicate C = 0.3.
Silencing of TMEM106A (transmembrane protein 106A) gave: mean z-score -0.81; z-score, replicate A = -0.76; z-score, replicate B = -1.03; z-score, replicate C = -0.64.
With knock-down of LOC389250 (retired record), the screen gave mean z-score -1; z-score, replicate A = -0.3; z-score, replicate B = -1.42; z-score, replicate C = -1.27.
With knock-down of HSDL2 (hydroxysteroid dehydrogenase like 2), the record shows mean z-score 0.38; z-score, replicate A = 0.22; z-score, replicate B = 0.4; z-score, replicate C = 0.53.
ATG10 (autophagy related 10) scored mean z-score 1.57; z-score, replicate A = 1.52; z-score, replicate B = 1.74; z-score, replicate C = 1.46.
After knock-down of DMBT1L1 (deleted in malignant brain tumors 1 like 1 (pseudogene)), the record shows mean z-score -0.44; z-score, replicate A = -0.54; z-score, replicate B = -0.4; z-score, replicate C = -0.37.
PUDP (pseudouridine 5'-phosphatase) gave mean z-score -0.59; z-score, replicate A = -0.72; z-score, replicate B = -0.31; z-score, replicate C = -0.75.
With knock-down of LRRC70 (leucine rich repeat containing 70) the results were mean z-score 0.02; z-score, replicate A = 0.22; z-score, replicate B = -0.13; z-score, replicate C = -0.03.
Against CINP (cyclin dependent kinase 2 interacting protein), the values are mean z-score 0.78; z-score, replicate A = 0.12; z-score, replicate B = 1.12; z-score, replicate C = 1.11.
After knock-down of TTC4 (tetratricopeptide repeat domain 4), the screen gave mean z-score -1.1; z-score, replicate A = -0.54; z-score, replicate B = -1.21; z-score, replicate C = -1.55.
For GMIP (GEM interacting protein), the values are mean z-score -0.98; z-score, replicate A = -0.51; z-score, replicate B = -1.19; z-score, replicate C = -1.24.
Silencing of RBM23 (RNA binding motif protein 23) resulted in: mean z-score -1.02; z-score, replicate A = -1.3; z-score, replicate B = -1.53; z-score, replicate C = -0.24.
